In US20220356229A1 (published 2022):
Where two headings read alike, the source gives them in different places.

Assays:
[1] = target: T1, SARS-CoV Spike protein (SARS-CoV, UniProt P59594 14-1190); test: multiplexed bead assay, flow cytometry, SARS-CoV Spike on beads
[2] = target: T1, SARS-CoV Spike protein
[3] = target: T2, SARS-CoV Spike protein (SARS-CoV, UniProt P59594 14-1190); test: multiplexed bead assay, flow cytometry
[4] = target: T2, SARS-CoV Spike protein; test: multiplexed bead assay, flow cytometry; remark: listed apart in the source
[5] = target: T3, SARS-CoV-2 Spike (S) protein, wild type, full length (SARS-CoV-2, UniProt P0DTC2 14-1273); test: flow cytometry, CHO cells expressing full-length Spike
[6] = target: SARS-CoV-2 WT Spike protein on renilla luciferase reporter viral particles (SARS-CoV-2, UniProt P0DTC2 14-1273); test: cell-based or functional assay
[7] = target: Spike protein of authentic SARS-CoV-2/MT020880.1 (live virus) (SARS-CoV-2, UniProt P0DTC2 14-1273); test: cell-based or functional assay
[8] = target: SARS-CoV-2 Spike NTD (SARS-CoV-2, UniProt P0DTC2 16-328); test: multiplexed bead assay, flow cytometry, […]
[9] = target: T3, SARS-CoV-2 Spike (S) protein, wild …; test: flow cytometry, CHO cells expressing full-length Spike; remark: listed apart in the source
[10] = target: T3, SARS-CoV-2 Spike (S) protein, wild …; test: as above; remark: listed apart in the source
[11] = target: T3, SARS-CoV-2 Spike (S) protein, wild …; test: as above; remark: listed apart in the source
[12] = target: SARS-CoV Spike protein (full length Spike, coupled to optically encoded beads) (SARS-CoV, UniProt P59594 14-1190); test: multiplexed bead assay, flow cytometry

B1: anti-coronavirus antibody 554 (antibody, V domains shown)
VH: QVQLVESGGGVVQPGRSLRLSCAASGFTFSSYAMHWVRQAPGKGLEWVAVISYDGSNKYYADSVKGRFTISRDNSKNTLYLQMNSLRAEDTAVYYCARPQGGNYYYYGMDVWGQGTTVTVSS
VL: DIQMTQSPSSVSASVGDRVTITCRASQGISSWLAWYQQKPGKAPKLLIYAASSLQSGVPSRFSGSGSGTDFTLTISSLQPEDFATYYCQQANSFPLTFGGGTKVEIK
binding signal (fold over isotype control) [1]: 8.45 fold over isotype control
binding signal (fold over isotype control) [2]: 28 fold over isotype control

B2: anti-coronavirus antibody 568 (antibody, V domains shown)
VH: EVQLVESGGVVVQPGGSLRLSCAASGFTFDDYAMHWVRQAPGKGLEWVSLISWDGGSTYYADSVKGRFTISRDNSKNSLYLQMNSLRAEDTALYYCAKDIGYSSTTTEVGWFDPWGQGTLVTVSS
VL: DIQMTQSPSSVSASVGDRVTITCRASQGISSWLAWYQQKPGKAPKLLIYAASSLQSGVPSRFSGSGSGTDFTLTISSLQPEDFATYYCQQANSFPLTFGGGTKVEIK
binding signal (fold over isotype control) [1]: 1.07 fold over isotype control
binding signal (fold over isotype control) [2]: 0.99 fold over isotype control

B3: antibody 336 (antibody, V domains shown)
VH: QVQLVESGGGVVQPGRSLRLSCAASGFTFSSYAMHWVRQAPGKGLEWVAVISYDGSNKYYADSVKGRFTISRDNSKNTLYLQMNSLRAEDTAVYYCARAQTDYYDSSGWFDYWGQGTLVTVSS
VL: SYELTQPPSVSVSPGQTARITCSGDALPKQYAYWYQQKPGQAPVLVIYKDSERPSGIPERFSGSSSGTTVTLTISGVQAEDEADYYCQSADSSGTPHWVFGGGTKLTVL
bead binding signal (median fluorescence, fold over isotype control) [3]: 1.08 fold over isotype control
bead binding signal (median fluorescence, fold over isotype control) [4]: 1.09 fold over isotype control

B4: antibody 545 (antibody, V domains shown)
VH: QVQLVQSGSELKKPGASVKVSCKASGYTFTSYAMNWVRQAPGQGLEWMGWINTNTGNPTYAQGFTGRFVFSLDTSVSTAYLQISVLKAEDTGVYYCARDHELPNSSSWFGHFEYWGQGTLVTVSS
VL: SYELTQPPSVSVSPGQTARITCSGDALPKQYAYWYQQKAGQAPVLVIYKDSERRSGIPERFSGSSSGTTVTLTISGVQAEDEADYYCQSADSSGTSVVFGGGTKLTVL
median fluorescence, fold over isotype control [5]: 20.6 fold over isotype

B5: anti-SARS-CoV-2 antibody 1444 (antibody, V domains shown)
VH: QVQLVQSGAEVKKPGASVKVSCKASGYTFTAYYMHWVRQAPGQGLEWMGWINPNSDDTNYAQKFQGRVTMTRDTSISTAYMELSRLRSDDTAVYYCAREEGVFTIGDRYFDLWGRGTLVSVSS
VL: QTVVTQEPSFSVSPGGTVTLTCGLSSGSVSTSYYPSWYQQTPGQAPRTLIYNTNTRSSGVPDRFSGSILGNKAALTITGAQADDESDYYCVLYMGSGIWVFGGGTKLTVLG
IC50 WT (µg/mL); pseudovirus neutralization, luciferase [6]: 0.115 µg/mL

B6: anti-SARS-CoV-2 antibody 1444 (antibody, V domains shown)
VH: QVQLVQSGAEVKKPGASVKVSCKASGYTFTAYYMHWVRQAPGQGLEWMGWINPNSDDTNYAQKFQGRVTMTRDTSISTAYMELSRLRSDDTAVYYCAREEGVFTIGDRYFDLWGRGTLVSVSS
VL: QTVVTQEPSFSVSPGGTVTLTCGLSSGSVSTSYYPSWYQQTPGQAPRTLIYNTNTRSSGVPDRFSGSILGNKAALTITGAQADDESDYYCVLYMGSGIWVFGGGTKLTVLG
IC50 (ng/mL), immunofluorescence neutralization assay [7]: 232 ng/mL

B7: antibody 1444 (antibody, V domains shown)
VH: QVQLVQSGAEVKKPGASVKVSCKASGYTFTAYYMHWVRQAPGQGLEWMGWINPNSDDTNYAQKFQGRVTMTRDTSISTAYMELSRLRSDDTAVYYCAREEGVFTIGDRYFDLWGRGTLVSVSS
VL: QTVVTQEPSFSVSPGGTVTLTCGLSSGSVSTSYYPSWYQQTPGQAPRTLIYNTNTRSSGVPDRFSGSILGNKAALTITGAQADDESDYYCVLYMGSGIWVFGGGTKLTVLG
bead assay binding signal [8]: 1.1

B8: anti-SARS-CoV-2 antibody 923 (antibody, V domains shown)
VH: EVQLVESGGGVVRPGGSLRLSCAASGFIFDDYDMTWVRQAPGKGLEWVSGISWNGGNTGYADSVKGRFTISRDNAKNSLYLQMNSLRAEDTALYHCAVIMSPIPRYSGYDWAGGAFDIWGQGTMVTVSS
VL: SSELTQDPAVSVALGQTVRITCQGDSLRSYYASWYQQKPGQVPILVIYDKNNRPSGIPDRFSGSSSGNTASLTITGAQAEDEADYYCNSRDSSGNAVVFGGGTKLTVLG
IC50 WT (µg/mL); pseudovirus neutralization, luciferase [6]: 0.155 µg/mL

B9: anti-SARS-CoV-2 antibody 1037 (antibody, V domains shown)
VH: QITLKESGPTLVKPTQTLTLTCTFSGFSLSTSGVGVGWIRQPPGKALEWLALIYWDDDKRYSPSLKSRLTITKDTSKNQVVLTMTNMDPVDTATYYCAHHTITRINDYWGQGTLVTVSS
VL: QSALTQPASVSGSPGQSITISCTATSSDVGAYNYVSWYQQHPGKAPKLMIYDVSKRPSGVSNRFSGSKSGNTASLTISGLQAEDEADYYCSSYTSSSTVFGGGTKLTVLG
IC50 WT (µg/mL); pseudovirus neutralization, luciferase [6]: 0.0212 µg/mL

B10: antibody 1404 (antibody, V domains shown)
VH: QITLKESGPTLVKPTQTLTLTCTFSGFSLSISGVGVGWLRQPPGKALEWLALIYWDDDKRYSPSLKSRLTISKDTSKNQVVLKMTNIDPVDTATYYCAHHSISTIFDHWGQGTLVTVSS
VL: QSALTQPASVSGSPGQSITISCTATSSDVGDYNYVSWYQQHPGKAPKLMIFEVSDRPSGISNRFSGSKSGNTASLTISGLQAEDEADYYCSSYTTSSAVFGGGTKLTVLG
bead assay binding signal [8]: 1.1

B11: antibody 506 (antibody, V domains shown)
VH: QITLKESGPTLVKPTQTLTLTCTFSGFSLSTSGVGVGWIRQPPGKALEWLALIYWDDDKRYSPSLKSRLTITKDTSKNQVVLTMTNMDPVDTATYYCAHHSLSSIFDYWGQGTLVTVSS
VL: QSALTQPASVSGSPGQSITISCTGTSSDVGDYNYVSWYQQHPGKAPKLMIYEVSNRPSGVSNRFSGSKSGNTASLTISGLQAEDEADYYCSSYTSSSTVFGGGTKLTVLG
median fluorescence, fold over isotype control [9]: 30.8 fold over isotype
median fluorescence, fold over isotype control [10]: 19 fold over isotype
median fluorescence, fold over isotype control [11]: 30.1 fold over isotype
median fluorescence, fold over isotype control [5]: 22.3 fold over isotype

B12: anti-SARS-CoV-2 antibody 851 (antibody, V domains shown)
VH: QITLKESGPTLVKPTQTLTLTCTFSGFSLSTNGVGMGWIRQPPGKALEWLALIYWDDDQFYSPSLKSRLTITRDTSKNQVVLTMTNMDPVDTATYYCAQAFYESFGFYSWGQGTLVTVSS
VL: NFMLTQPHSVSESPGKTVIISCTRSIGSIASNYVQWYQQRPGSAPTIVVFEDNERPSGVPDRFSGSIDRSSNSASLTISGLKTEDEADYYCQSYDGSSELVFGGGTKLTVLG
IC50 (ng/mL), immunofluorescence neutralization assay [7]: 208 ng/mL

B13: antibody 338 (antibody, V domains shown)
VH: QVQLQESGPGLVKPSETLSLTCAVSGYSISSDYYWGWIRQPPGKGLEWIGSIYHSGSTYYNPSLKSRVTISIDTSKNQFSLKLSSVTAADTAVYYCARDPGNYDILTGIFDYWGQGTLVTVSS
VL: QSALTQPASVSGSPGQSITISCTGTSSDVGVYNYVSWYQQHPGKAPKLMIYDVTNRPSGVSNRFSGSKSGNTASLTISGLQAEDEADYYCSSYTSSSTLAVYVFGTGTKVTVL
bead binding signal (median fluorescence, fold over isotype control) [3]: 36.6 fold over isotype control
bead binding signal (median fluorescence, fold over isotype control) [4]: 84.8 fold over isotype control

B14: anti-coronavirus antibody 562 (antibody, V domains shown)
VH: QVQLVESGGGVVQPGRSLRLSCAASGFTFSSYAMHWVRQAPGKGLEWVAVISYDGSNKYYADSVKGRFTISRDNSKNTLYLQMNSLRAEDTAVYYCARASSGGYQGPFDPWGQGTLVTVSS
VL: QSALTQPASVSGSPGQSITISCTGTSSDVGGYNYVSWYQQHPGKAPKLMIYDVSNRPSGVSNRFSGSKSGNTASLTISGLQAEDEADYYCSSYTSSSTLLYVFGTGTKVTVLG
binding signal (fold over isotype control) [1]: 5.67 fold over isotype control

B15: antibody 308 (antibody, V domains shown)
VH: QLQLQESGPGLVKPSETLSLTCSVSGGSISSSSYHWGWIRQPPGKGLEWIGSIYYSGSTYYNPSLKSRVTISVDTSKNQFSLKLRSVTAADTAVYYCAGLRVVITFGGVIPKGGAFDIWGQGTMVTVSS
VL: QSALTQPASVSGSPGQSITISCTGTSSDVGGYNYVSWYQQHPGKAPKLMIYDVSNRPSGVSNRFSGSKSGNTASLTISGLQAEDEADYYCSSYTSSSTVVFGGGTKLTVLG
median fluorescence intensity, fold over isotype control [12]: 22.8 fold over isotype
